Anti-infective test results gathered from many reports (values: NIAID ChemDB through PubChem).

Shared fields: tests in culture; organism: Candida tropicalis

A number after MIC or MFC names an inhibition level or a share of isolates. An empty or dashed field is not shown. ECn: concentration that inhibits the pathogen or its effect by n%. Rows are shuffled and stem from different studies.

smiles	strain or isolate	endpoint	cell line	read by	value
CC(C)(C)C(=O)OC1CCN(CC(O)(Cn2cncn2)c2ccc(F)cc2F)CC1	-	MIC80	-	broth dilution	0.148 µM
CCOC(=O)C1C(=O)C=C(c2ccc(F)cc2)CC1c1ccc(C2CC(c3ccc(F)cc3)=CC(=O)C2C(=O)OCC)cc1	Clinical isolate	MIC	-	-	12.5 µg/mL
c1ccc(C(c2ccccc2)n2ccnc2)cc1	-	MIC90	-	agar	1 µg/mL
C[C@H]1N(C(=O)c2ccc(C(F)(F)F)cc2)C[C@@H](O)O[C@@]1(Cn1cncn1)c1ccc(F)cc1F	Isolate 2	MIC	-	-	>100 µg/mL
Clc1ccc(C(Cn2ccnc2)NCc2cccc3ccccc23)c(Cl)c1	CBS 94 CA 44 CA 43	MIC	-	-	36.7 µg/mL
C[C@H]1[C@H](O)[C@@H](C)/C=C/C=C/C=C/C=C/C=C/C=C/C=C/[C@H](O[C@@H]2O[C@H](C)[C@@H](O)[C@H](N)[C@@H]2O)C[C@@H]2O[C@](O)(C[C@@H](O)C[C@@H](O)CC[C@H](O)[C@@H](O)C[C@@H](O)CC(=O)O[C@H]1C)C[C@H](O)[C@H]2C(=O)O	CCC 131	MIC100	-	broth dilution / absorbance	0.5 µg/mL
CCCC(=O)OC1CCN(CC(O)(Cn2cncn2)c2ccc(F)cc2F)CC1	-	MIC80	-	broth dilution	0.153 µM
Cc1nn2c(-c3ccncc3)nnc2s/c1=N/Nc1ccc(F)cc1	ATCC 66029	MIC	-	broth dilution	25 µg/mL
CCCCCOc1ccc(-c2cc(-c3ccc(C(=O)N[C@H]4C[C@@H](O)[C@@H](O)NC(=O)[C@@H]5[C@@H](O)[C@@H](C)CN5C(=O)[C@H]([C@H](O)CC(N)=O)NC(=O)[C@H]([C@H](O)[C@@H](O)c5ccc(O)c(OS(=O)(=O)O)c5)NC(=O)[C@@H]5C[C@@H](O)CN5C(=O)[C@H]([C@@H](C)O)NC4=O)cc3)no2)cc1	-	MIC50	-	broth dilution	0.016 µg/mL
O=C(c1ccccc1)C(c1ccccc1)n1cncn1	-	MIC90	-	agar	64 µg/mL
C/C(C=NCCN=C/C(C)=C\c1ccccc1)=C/c1ccccc1	ATCC 750	MIC90	-	agar diffusion	160 µM
Clc1ccc(C(c2ccccc2)N2CCN(CCn3ccnc3)CC2)cc1	-	MIC90	-	agar	>256 µg/mL
Clc1ccc(C(Cn2ccnc2)NC/C=C/c2ccccc2)c(Cl)c1	CBS 94 CA 44 CA 14	EC50	VERO	-	12 µg/mL
NN(Cc1ccccc1)CC(O)(Cn1cncn1)c1ccc(F)cc1F	ATCC 750	MIC80	-	-	0.125 µg/mL
COc1ccc(C(c2ccc(OC)cc2)n2ccnc2)cc1	-	MIC90	-	agar	>256 µg/mL
CCOc1ccc2nc3cc(N=C4NC(=O)/C(=C\c5ccc([N+](=O)[O-])o5)S4)ccc3c(N)c2c1	ATCC 8302	MIC	-	broth dilution	31.3 µg/mL
C=CCc1ccc(O)c(OC)c1	3000	MIC90	-	turbidity	490 µg/mL
O=C(c1ccccc1)C(c1ccccc1)n1ccnc1	-	MIC90	-	agar	>256 µg/mL
CC(=O)Nc1ccc(S(=O)(=O)Nn2sc3ccc(C)cc3c2=O)cc1	ATCC 1369	MIC100	-	-	>100 µg/mL
Clc1ccc(C(c2ccccc2)n2ccnc2)cc1	-	MFC	-	broth dilution	0.5 µg/mL
C[C@@H]([C@H](N)C(=O)N[C@H](C(=O)O)[C@H]1O[C@@H](n2ccc(=O)[nH]c2=O)[C@H](O)[C@@H]1O)[C@H](O)c1ccc(O)cn1	53	MIC	-	visual reading	>500 µg/mL
O=C(OC1CCN(CC(O)(Cn2cncn2)c2ccc(F)cc2F)CC1)C(F)(F)Cl	-	MIC80	-	broth dilution	2.222 µM
Cc1nn2c(-c3ccncc3)nnc2s/c1=N/Nc1ccc(S(N)(=O)=O)cc1	ATCC 66029	MIC	-	broth dilution	>100 µg/mL
OC(Cn1cncn1)(Cn1cncn1)c1ccc(F)cc1F	Berkout KCCM 50662	MIC	-	-	0.8 µg/mL
Brc1cnc2[nH]c(CN3CCCCC3)cc2c1	ATCC 201380	MIC100	-	-	31.3 µg/mL
COc1ccc(C[C@H](N)C(=O)N[C@H]2[C@@H](O)[C@H](n3cnc4c(N)ncnc43)O[C@@H]2C(=O)O)cc1	FP-583	MIC	-	-	>100 µg/mL
Clc1ccc(C(Cn2ccnc2)NCc2ccc(-c3ccccc3)cc2)cc1	CBS 94 CA 44 CA 14	EC50	VERO	-	12 µg/mL
O=C(/C=C/c1cccc([N+](=O)[O-])c1)OC1CCN(CC(O)(Cn2cncn2)c2ccc(F)cc2F)CC1	-	MIC80	-	broth dilution	0.122 µM
Cc1ccc(-c2c3c(N)c4c(nc3nc3c2c(C)nn3-c2ccccc2)CCC4)cc1	CCC 131	MIC50	-	broth dilution / absorbance	62.5 µg/mL
c1ccc(C(c2ccccc2)n2cnc3ccccc32)cc1	-	MFC	-	broth dilution	>256 µg/mL
CCC(C)CC(C)CCCCCCCCC(=O)N[C@H]1C[C@@H](O)[C@H](NCCN)NC(=O)[C@@H]2[C@@H](O)CCN2C(=O)[C@H]([C@H](O)CCN)NC(=O)[C@H]([C@H](O)[C@@H](O)c2ccc(O)cc2)NC(=O)[C@@H]2C[C@@H](O)CN2C(=O)[C@H]([C@@H](C)O)NC1=O	20 isolates	MIC90	-	-	1 µg/mL
COc1cc(O)c2c(c1)C(=O)c1c(cc3c(c1O)-c1c(cc(C)c(C(=O)NC(CO)C(=O)O)c1O)[C@H](OC1OC(C)C(O)C(OC4OCC(O)C(O)C4O)C1O)C3O)C2=O	Isolate 93-681 fluconazole-susceptible	MIC	-	-	8 µg/mL
Brc1cnc2[nH]c(CN3CCOCC3)cc2c1	ATCC 201380	MIC100	-	-	31.3 µg/mL
CCCCCCCC/C=C\CCCCCCCC(=O)N[C@H](C(=O)N1C[C@H](C)C[C@H]1C(=O)N[C@H](C(=O)N[C@@H](CCO)C(=O)N[C@@H](C)CO)C(C)C)[C@@H](C)O	ATCC 750	MIC	-	broth dilution / visual reading	>32 µg/mL
Cc1ccc(-c2c3c(N)c4c(nc3nc3c2c(C)nn3-c2ccccc2)CCCCC4)cc1	CCC 131	MIC50	-	broth dilution / absorbance	62.5 µg/mL
CCOC(=O)C1C(=O)C=C(c2ccc(Br)cc2)CC1c1ccc(C2CC(c3ccc(Br)cc3)=CC(=O)C2C(=O)OCC)cc1	Clinical isolate	MIC	-	-	25 µg/mL
COc1ccc(/C=C/C(=O)OC2CCN(CC(O)(Cn3cncn3)c3ccc(F)cc3F)CC2)cc1	-	MIC80	-	broth dilution	0.125 µM
Nc1ncccc1-c1cc(Cc2ccc(COc3ccccn3)cc2)no1	-	MIC90	-	broth dilution	0.03 µg/mL
CC(=O)N1CCN(c2ccc(OC[C@H]3CO[C@](Cn4ccnc4)(c4ccc(Cl)cc4Cl)O3)cc2)CC1	ATCC 66029	MIC	-	broth dilution	3 µg/mL
CC(=O)Nc1ccc(S(=O)(=O)Nn2sc3ccccc3c2=O)cc1	ATCC 1369	MIC100	-	-	>100 µg/mL
Clc1ccc(C(Cn2ccnc2)NCc2cccc3ccccc23)cc1	CBS 94 CA 44 CA 46	MIC	-	-	43.3 µg/mL
CCOC(=O)C1C(=O)C=C(c2ccccc2)CC1c1ccc(C2CC(c3ccccc3)=CC(=O)C2C(=O)OCC)cc1	Clinical isolate	MIC	-	-	25 µg/mL
Cc1ccc2sn(N(S(=O)(=O)c3ccc(N)cc3)S(=O)(=O)c3ccc(N)cc3)c(=O)c2c1	ATCC 1369	MIC100	-	-	>100 µg/mL
FC(F)(F)c1cc(-c2cc3cc(Br)cnc3[nH]2)cc(C(F)(F)F)c1	ATCC 201380	MIC100	-	-	31.3 µg/mL
CCCCCCCCCCCCCCCCn1cc[n+](C)c1	72P	MIC	-	broth dilution	0.014 µg/mL
Clc1ccc(C(c2ccccc2)n2cnc3ccccc32)cc1	-	MIC90	-	agar	16 µg/mL
O=C(CCn1ccnc1)c1cccc(C(O)c2ccc(Cl)cc2)c1	RTCC 1065	MIC	-	broth dilution	64 µg/mL
CC[C@@H]([C@H](C)O)n1ncn(-c2ccc(N3CCN(c4ccc(OC[C@@H]5CO[C@@](Cn6cncn6)(c6ccc(F)cc6F)C5)cc4)CC3)cc2)c1=O	15 strains	MIC50	-	-	0.03 µg/mL
OC(CCn1ccnc1)c1cccc(C(O)c2ccc(Cl)c(Cl)c2)c1	RTCC 1065	MIC	-	broth dilution	>64 µg/mL
O=C(O[C@@H]1COC(=O)c2cc(O)c(O)c(O)c2-c2c(cc(O)c(O)c2O)C(=O)OC1C1OC(=O)c2cc(O)c(O)c(O)c2-c2c(O)c(O)c(O)c3c2C(=O)OC1[C@H]3O)c1cc(O)c(O)c(O)c1	ATCC 750	MIC	-	broth dilution	145 µg/mL
O=C(CCn1ccnc1)c1ccc(Cl)cc1	RTCC 1065	MIC	-	broth dilution	64 µg/mL
Cc1ccc(-c2c3c(N)c4c(nc3nc3c2c(C)nn3-c2ccccc2)CCCC4)cc1	CCC 131	MIC80	-	broth dilution / absorbance	15.6 µg/mL
CO[C@@H]1C(COC(=O)CCC(=O)O)=CC2C(=O)O[C@H]3C[C@@H](C/C=C(\C)C[C@@H](C)/C=C/C=C4\CO[C@H]1[C@@]42O)O[C@@]1(CC[C@H](C)[C@@H](C)O1)C3	FA1572	MIC	-	-	0.06 µg/mL
Nc1scc2c1c(=O)oc1ccccc12	ATCC 750	MIC	-	broth dilution	16 µg/mL
CC(=O)OC1CCN(CC(O)(Cn2cncn2)c2ccc(F)cc2F)CC1	-	MIC80	-	broth dilution	0.658 µM

A second listing of 7 rows from above:

smiles,strain or isolate,endpoint,cell line,read by,value
C=CCc1ccc(O)c(OC)c1,3000,MIC90,-,turbidity,490 µg/mL
CCC(C)CC(C)CCCCCCCCC(=O)N[C@H]1C[C@@H](O)[C@H](NCCN)NC(=O)[C@@H]2[C@@H](O)CCN2C(=O)[C@H]([C@H](O)CCN)NC(=O)[C@H]([C@H](O)[C@@H](O)c2ccc(O)cc2)NC(=O)[C@@H]2C[C@@H](O)CN2C(=O)[C@H]([C@@H](C)O)NC1=O,20 isolates,MIC90,-,-,1 µg/mL
Cc1ccc(-c2c3c(N)c4c(nc3nc3c2c(C)nn3-c2ccccc2)CCCC4)cc1,CCC 131,MIC80,-,broth dilution / absorbance,15.6 µg/mL
Cc1ccc(-c2c3c(N)c4c(nc3nc3c2c(C)nn3-c2ccccc2)CCCCC4)cc1,CCC 131,MIC50,-,broth dilution / absorbance,62.5 µg/mL
CCOc1ccc2nc3cc(N=C4NC(=O)/C(=C\c5ccc([N+](=O)[O-])o5)S4)ccc3c(N)c2c1,ATCC 8302,MIC,-,broth dilution,31.3 µg/mL
COc1ccc(C[C@H](N)C(=O)N[C@H]2[C@@H](O)[C@H](n3cnc4c(N)ncnc43)O[C@@H]2C(=O)O)cc1,FP-583,MIC,-,-,>100 µg/mL
O=C(O[C@@H]1COC(=O)c2cc(O)c(O)c(O)c2-c2c(cc(O)c(O)c2O)C(=O)OC1C1OC(=O)c2cc(O)c(O)c(O)c2-c2c(O)c(O)c(O)c3c2C(=O)OC1[C@H]3O)c1cc(O)c(O)c(O)c1,ATCC 750,MIC,-,broth dilution,145 µg/mL